Consider 13 compounds from PMC7555970, “Design, Synthesis and Biological Evaluation of Biphenylglyoxamide-Based Small Molecular Antimicrobial Peptide Mimics as Antibacterial Agents” (International Journal of Molecular Sciences, 2020).

The series deals with MRC-5 normal human lung fibroblasts. Put plainly: MTT toxicity assay. Type of series: cell-based. Conditions: for Therapeutic Index S. aureus: IC50 value (MRC-5) divided by MIC value against S. aureus; for Therapeutic Index E. coli: IC50 value (MRC-5) divided by MIC value against E. coli; for Therapeutic Index P. aeruginosa: IC50 value (MRC-5) divided by MIC value against P. aeruginosa. As to the method: The toxicity of the compounds was measured using an MTT (3-(4,5-dimethylthiazol-2-yl)-2,5-diphenyltetrazolium bromide) (Sigma Aldrich, St Louis, MO, USA) colorimetric assay against normal human lung fibroblasts MRC-5 cells. The cells were cultured in minimal essential medium (MEM; Sigma Aldrich, St Louis, MO, USA) containing 10% foetal bovine serum (FBS). The cells were maintained at 37 °C in 5% CO2 as an adherent monolayer and was passaged upon reaching confluence by standard cell culture techniques. MRC-5 cells were seeded at 5000 cells/well in 96-well plates to ensure full confluence (quiescence) and left overnight to adhere to the plate wells. The adherent cells were treated with 1–500 µM of compounds by dissolving in DMSO and serially diluting with media. The final concentration of DMSO was 0.5% (v/v). After 72 h drug incubation, […] stock MTT solution (5 mg/mL) was added and the cells were incubated for another 3.5–4 h. MTT solution-containing media was carefully aspirated without displacing the purple crystals from the bottom and […] acid-isopropanol was added to all wells and mixed slowly by shaking with an orbital shaker to dissolve the dark blue crystals. The metabolic activity was detected by spectrophotometric analysis by assessing the read absorbance (590/620 nm) on an EnSight plate reader (PerkinElmer, Waltham, MA, USA) and cell viability was expressed as a percentage of untreated control cells. The determination of IC50 values was performed using GraphPad Prism 6 (GraphPad, San Diego, CA, USA). Each experiment was performed in triplicate and was repeated in three independent experiments.

Several values for one entry are separate records, joined by “and”; a condition that tells them apart may be missing. Identical values can stand only once.

Take `CCCCCCCCS(=O)(=O)Nc1ccc(-c2ccccc2)cc1C(=O)C(=O)NCCCN(C)C.Cl` [Compound 13a, N,N-Dimethyl-3-(2-(4-(octylsulfonamido)-[1,1’-biphenyl]-3-yl)-2-oxoacetamido)propan-1-aminium chloride]: the “Therapeutic Index S. aureus” value is 1.56–2.46 and 1.56.
On to `CCCCCCCCS(=O)(=O)Nc1ccc(-c2ccc(Cl)cc2)cc1C(=O)C(=O)NCCCN(C)C.Cl` [Compound 13c, 3-(2-(4’-Chloro-4-(octylsulfonamido)-[1,1’-biphenyl]-3-yl)-2-oxoacetamido)-N,N-dimethylpropan-1-aminium chloride], for which the “Therapeutic Index S. aureus” value turned out to be 1.59.
For `CCCCCCCCS(=O)(=O)Nc1ccc(-c2ccc3ccccc3c2)cc1C(=O)C(=O)NCCCN(C)C.Cl` [Compound 13d, N,N-Dimethyl-3-(2-(5-(naphthalen-2-yl)-2-(octylsulfonamido)phenyl)-2-oxoacetamido)propan-1-aminium chloride], the “Therapeutic Index S. aureus” value is 1.56–2.46 and 2.46.
Consider `CCCCCCCCS(=O)(=O)Nc1ccc(CCCC)cc1C(=O)C(=O)NCCCN(C)C.Cl` [Compound 13e, 3-(2-(5-Butyl-2-(octylsulfonamido)phenyl)-2-oxoacetamido)-N,N-dimethylpropan-1-aminium chloride], for which the “Therapeutic Index S. aureus” value is reported as 0.74.
As for `CCCCCCCCS(=O)(=O)Nc1ccc(-c2ccccc2)cc1C(=O)C(=O)NCCC[N+](C)(C)C.[I-]` [Compound 15a, N,N,N-Trimethyl-3-(2-(4-(octylsulfonamido)-[1,1’-biphenyl]-3-yl)-2-oxoacetamido)propan-1-aminium iodide], the “Therapeutic Index E. coli” value is given as 1.59, the “Therapeutic Index P. aeruginosa” value is 0.41 and the “Therapeutic Index S. aureus” value worked out at 3.17.
Turning to `CCCCCCCCS(=O)(=O)Nc1ccc(-c2ccc(F)cc2)cc1C(=O)C(=O)NCCC[N+](C)(C)C.[I-]` [Compound 15b, 3-(2-(4’-Fluoro-4-(octylsulfonamido)-[1,1’-biphenyl]-3-yl)-2-oxoacetamido)-N,N,N-trimethylpropan-1-aminium iodide], the “Therapeutic Index P. aeruginosa” value is 3.04.
With `CCCCCCCCS(=O)(=O)Nc1ccc(-c2ccc(Cl)cc2)cc1C(=O)C(=O)NCCC[N+](C)(C)C.[I-]` [Compound 15c, 3-(2-(4’-Chloro-4-(octylsulfonamido)-[1,1’-biphenyl]-3-yl)-2-oxoacetamido)-N,N,N-trimethylpropan-1-aminium iodide], the “Therapeutic Index P. aeruginosa” value was determined as 1.53.
For the compound `CCCCCCCCS(=O)(=O)Nc1ccc(-c2ccc3ccccc3c2)cc1C(=O)C(=O)NCCC[N+](C)(C)C.[I-]` [Compound 15d, N,N,N-Trimethyl-3-(2-(5-(naphthalen-2-yl)-2-(octylsulfonamido)phenyl)-2-oxoacetamido)propan-1-aminium iodide], the “Therapeutic Index E. coli” value was found to be 1.79 and the “Therapeutic Index P. aeruginosa” value amounted to 0.45.
`CCCCCCCCS(=O)(=O)Nc1ccc(CCCC)cc1C(=O)C(=O)NCCC[N+](C)(C)C.[I-]` [Compound 15e, 3-(2-(5-Butyl-2-(octylsulfonamido)phenyl)-2-oxoacetamido)-N,N,N-trimethylpropan-1-aminium iodide]: the “Therapeutic Index S. aureus” value was found to be 6.31.
In the case of `CCCCCCCCS(=O)(=O)Nc1ccc(-c2ccccc2)cc1C(=O)C(=O)NCCCNC(=N)N.Cl` [Compound 22a, N-(3-Guanidinopropyl)-2-(4-(octylsulfonamido)-[1,1’-biphenyl]-3-yl)-2-oxoacetamide hydrochloride], the “Therapeutic Index E. coli” value came to 1.21 and the “Therapeutic Index P. aeruginosa” value came out at 1.21.
With `CCCCCCCCS(=O)(=O)Nc1ccc(-c2ccc(F)cc2)cc1C(=O)C(=O)NCCCNC(=N)N.Cl` [Compound 22b, 2-(4’-Fluoro-4-(octylsulfonamido)-[1,1’-biphenyl]-3-yl)-N-(3-guanidinopropyl)-2-oxoacetamide hydrochloride], the “Therapeutic Index E. coli” value stood at 4.75 and the “Therapeutic Index P. aeruginosa” value was 1.21.
Regarding `CCCCCCCCS(=O)(=O)Nc1ccc(-c2ccc(Cl)cc2)cc1C(=O)C(=O)NCCCNC(=N)N.Cl` [Compound 22c, 2-(4’-Chloro-4-(octylsulfonamido)-[1,1’-biphenyl]-3-yl)-N-(3-guanidinopropyl)-2-oxoacetamide hydrochloride], the “Therapeutic Index E. coli” value was 1.52 and the “Therapeutic Index P. aeruginosa” value is reported as 0.38.
Consider `CCCCCCCCS(=O)(=O)Nc1ccc(-c2ccc3ccccc3c2)cc1C(=O)C(=O)NCCCNC(=N)N.Cl` [Compound 22d, N-(3-Guanidinopropyl)-2-(5-(naphthalen-2-yl)-2-(octylsulfonamido)phenyl)-2-oxoacetamide hydrochloride], for which the “Therapeutic Index S. aureus” value is listed as 6.19.
